Measured values from several laboratories, pooled; numbers as filed in NIAID ChemDB.

All rows: target-level tests

ICn is the concentration giving n% inhibition. Rows are shuffled and stem from different studies. Percent inhibition refers to the dose given; in toxicity tests it is the harm to the cells. Fold resistance: result on the changed form divided by that on wild type. An empty or dashed field is not shown. Two numbers with a dash give a range or band.

compound	tested at	changes	read by	measure	target	species	value
O=c1ccn2ccn(Cc3ccc(Br)cc3)c(=O)c2c1O			ELISA	IC50	Integrase	HIV-1	0.01–0.1 µM
O=C(/C=C/c1ccccc1Cl)Nc1nnc(NCc2ccccn2)s1				IC50	Polymerase	Human cytomegalovirus	<25 µM
Fc1ccc(N2CCN(c3cncc(-c4ccc5ccccc5c4)n3)CC2)c(F)c1				IC50	UL97 kinase	Cytomegalovirus	<10 µM
CCC1(c2cc(Cl)cc(Cl)c2)C(C#N)=C(N)Oc2n[nH]c(C)c21			absorbance	IC50	Serine hydroxymethyltransferase	Plasmodium falciparum	0.28 µM
COc1ccccc1C(=O)Nc1nnc(NC[C@@H]2CCC3CC2C3(C)C)s1				IC50	Polymerase	Human cytomegalovirus	<25 µM
O=C1O[C@H]2C(O)O[C@@H]3COC(=O)c4cc(O)c(O)c(O)c4-c4c(cc(c(O)c4O)Oc4c(cc(O)c(O)c4O)C(=O)O[C@@H]4[C@@H](OC(=O)c5cc(O)c(O)c(O)c5)[C@@H]5OC(=O)c6cc(O)c(O)c(O)c6-c6c(cc7c(c6O)OC6C(O7)C1=CC(=O)C6(O)O)C(=O)OC[C@H]5O[C@H]4O)C(=O)O[C@H]3[C@@H]2OC(=O)c1cc(O)c(O)c(O)c1	5 µg/mL			inhibition	DNA polymerase	Epstein-Barr virus	46.9%
O=C(Nc1nnc(NCc2ccco2)s1)c1ccc(I)cc1				IC50	Polymerase	Human cytomegalovirus	>25 µM
Nc1ccn([C@@H]2CS[C@H](COP(=O)(O)OP(=O)(O)OP(=O)(O)O)O2)c(=O)n1		RT-Q151M	radiometric	fold resistance	Reverse transcriptase	HIV	0.59
O=C(Nc1nnc(NCc2ccco2)s1)c1c(Cl)cccc1Cl				IC50	Polymerase	Human cytomegalovirus	>25 µM
O=C1c2c(O)c(=O)c(-c3cnccn3)cn2CCN1Cc1ccc(F)cc1			ELISA	IC50	Integrase	HIV-1	0.01–0.1 µM
Fc1ccc(N2CCN(c3cncc(-c4ccc(C(F)(F)F)cc4)n3)CC2)cc1				IC50	UL97 kinase	Cytomegalovirus	<10 µM
O=C(O)c1ccc(N2C(=O)C(=Cc3ccc(-c4cc(F)cc(F)c4)o3)SC2=S)cc1				IC50	NS5 polymerase	Bovine viral diarrhea virus	≤1 µM
O=C(NC1CCC(N(C(=O)c2ccc(Cl)cc2Cl)c2cc(-c3ccccc3)sc2C(=O)O)CC1)OCc1ccccc1				IC50	NS3 ATPase	Hepatitis C virus	<5 µM
O=C(O)c1nc(-c2ccccc2NS(=O)(=O)c2ccccn2)[nH]c(=O)c1O				IC50	HCV polymerase	Hepatitis C virus	<100 µM
Clc1cc(CN2CCCNCCNCCCNCC2)cc(Cl)n1		CXCR4-D182N		IC50	CXCR4		0.56 µM
O=C(NCCc1ccccc1F)Nc1cscc1-c1nc(C(=O)O)c(O)c(=O)[nH]1				IC50	HCV polymerase	Hepatitis C virus	<25 µM
CC1(C)CN(Cc2ccc(F)cc2)C(=O)c2c(O)c(=O)c(-c3ccccn3)cn21			ELISA	IC50	Integrase	HIV-1	0.1–1 µM
Cc1[nH]nc2c1C(c1cc(Cl)cc(Cl)c1)(C(C)C)C(C#N)=C(N)O2			absorbance	IC50	Serine hydroxymethyltransferase	Plasmodium falciparum	0.29 µM
Cc1ccc(-c2ccc(C=C3SC(=S)N(CCC(=O)O)C3=O)o2)s1				IC50	NS5 polymerase	Bovine viral diarrhea virus	≤1 µM
O=C(O)CP(=O)(O)O	1 µg/mL			inhibition	DNA polymerase	Epstein-Barr virus	49.2%
Cc1ccccc1S(=O)(=O)Nc1cc(-c2ccoc2)sc1C(=O)O				IC50	NS3 ATPase	Hepatitis C virus	<5 µM
COc1ccc(-c2ccc(C=C3SC(=S)N(c4ccc(C(=O)O)cc4)C3=O)o2)nn1				IC50	NS5 polymerase	Bovine viral diarrhea virus	≤1 µM
Cc1ccc(C(=O)N(C)c2cc(-c3ccc(C)cc3)sc2C(=O)O)cc1				IC50	NS3 ATPase	Hepatitis C virus	5–20 µM
CCOC(=O)CCCN(C)c1cc(C#N)cc(C2(C3CCC3)C(C#N)=C(N)Oc3n[nH]c(C)c32)c1			absorbance	Ki	Serine hydroxymethyltransferase	Plasmodium falciparum	0.561 µM
O=C(O)c1ccc(N2C(=O)C(=Cc3ccc(-c4cc(C(F)(F)F)cc(C(F)(F)F)c4)o3)SC2=S)cc1				IC50	NS5 polymerase	Bovine viral diarrhea virus	≤1 µM
O=C(O)c1nc(-c2ccccc2NS(=O)(=O)/C=C/c2ccccc2)[nH]c(=O)c1O				IC50	HCV polymerase	Hepatitis C virus	<100 µM
Nc1nc2c(ncn2[C@H]2CC[C@@H](COP(=O)(O)OP(=O)(O)OP(=O)(O)O)O2)c(=O)[nH]1		RT-K263V	nucleotide incorporation	fold resistance	Reverse transcriptase	HIV	1
Cc1[nH]nc2c1C(c1cc(C#N)cc(-c3ccnn3C)c1)(C1CCC1)C(C#N)=C(N)O2			absorbance	Ki	Serine hydroxymethyltransferase	Plasmodium falciparum	0.528 µM
CC(=O)c1cccc(-c2cncc(N3CCN(c4ccccc4)CC3)n2)c1	1 µM			inhibition	UL97 kinase	Cytomegalovirus	<50%
O=C(Nc1cscc1-c1nc(C(=O)O)c(O)c(=O)[nH]1)c1ccc(Br)o1				IC50	HCV polymerase	Hepatitis C virus	<25 µM
O=C(Nc1nnc(NCC(c2ccccc2)c2ccccc2)s1)c1ccc([N+](=O)[O-])o1				IC50	Polymerase	Human cytomegalovirus	>25 µM
CN(C)c1ccc(-c2cncc(N3CCN(c4ccc(Cl)cc4)CC3)n2)cc1				IC50	UL97 kinase	Cytomegalovirus	<100 µM
O=C(Nc1nnc(NCc2ccc3c(c2)OCO3)s1)c1ccc(Br)cc1				IC50	Polymerase	Human cytomegalovirus	>25 µM
O=C(Cc1csc2ccc(Cl)cc12)Nc1ccsc1-c1nc(C(=O)O)c(O)c(=O)[nH]1				IC50	HCV polymerase	Hepatitis C virus	<25 µM
Cc1[nH]nc2c1C(c1cc(Cl)cc(C#N)c1)(C1CCC1)C(C#N)=C(N)O2			absorbance	Ki	Serine hydroxymethyltransferase	Plasmodium falciparum	0.349 µM
c1ccc(C2CCN(c3cncc(-c4cccc5ccccc45)n3)CC2)cc1	10 µM			inhibition	UL97 kinase	Cytomegalovirus	>15%
Cc1[nH]nc2c1C(c1cc(Cl)cc(C#N)c1)(C(C)C)C(C#N)=C(N)O2			absorbance	Ki	Serine hydroxymethyltransferase	Plasmodium falciparum	0.518 µM
O=C(O)c1ccc(-n2c(O)c(C=c3cc/c(=C4\C=c5ccccc5=N4)o3)sc2=S)cc1				IC50	NS5 polymerase	Bovine viral diarrhea virus	≤1 µM
FC(F)(F)c1cccc(N2CCN(c3cncc(-c4csc5ccccc45)n3)CC2)c1	10 µM			inhibition	UL97 kinase	Cytomegalovirus	>15%
CC(=O)NCCNc1nnc(NC(=O)c2c(C(C)C)cc(C(C)C)cc2C(C)C)s1				IC50	Polymerase	Human cytomegalovirus	>25 µM
CC(C)(C)OC(=O)NCCCCCC(=O)Nc1ccsc1-c1nc(C(=O)O)c(O)c(=O)[nH]1				IC50	HCV polymerase	Hepatitis C virus	<25 µM
COc1ccc(-c2cncc(N3CCC(c4ccccc4)CC3)n2)cc1F				IC50	UL97 kinase	Cytomegalovirus	<100 µM
CSc1ccccc1NC(=O)Nc1cscc1-c1nc(C(=O)O)c(O)c(=O)[nH]1				IC50	HCV polymerase	Hepatitis C virus	<25 µM
Nc1cn2ccn(Cc3cccc(Cl)c3)c(=O)c2c(O)c1=O			ELISA	IC50	Integrase	HIV-1	0.01–0.1 µM
Cc1ccccc1CC(=O)Nc1cccc(S(=O)(=O)NC(=O)Nc2cscc2-c2nc(C(=O)O)c(O)c(=O)[nH]2)c1				IC50	HCV polymerase	Hepatitis C virus	<25 µM
O=C(O)c1sc(-c2ccccc2)cc1N(Cc1ccccc1)C(=O)C1CCC1				IC50	NS3 ATPase	Hepatitis C virus	<5 µM
Cc1[nH]nc2c1C(c1cc(Cl)cc(-c3ccc(C(=O)OCc4ccccc4)cc3)c1)(C1CCC1)C(C#N)=C(N)O2			absorbance	Ki	Serine hydroxymethyltransferase	Plasmodium falciparum	1.96 µM
COc1ccc(S(=O)(=O)Nc2ccccc2-c2nc(C(=O)O)c(O)c(=O)[nH]2)cc1				IC50	HCV polymerase	Hepatitis C virus	<100 µM

5 of the rows above, restated:

Fc1ccc(N2CCN(c3cncc(-c4ccc(C(F)(F)F)cc4)n3)CC2)cc1 ; measure: IC50 ; target: UL97 kinase ; species: Cytomegalovirus ; value: <10 µM
O=C(Nc1cscc1-c1nc(C(=O)O)c(O)c(=O)[nH]1)c1ccc(Br)o1 ; measure: IC50 ; target: HCV polymerase ; species: Hepatitis C virus ; value: <25 µM
FC(F)(F)c1cccc(N2CCN(c3cncc(-c4csc5ccccc45)n3)CC2)c1 ; tested at: 10 µM ; measure: inhibition ; target: UL97 kinase ; species: Cytomegalovirus ; value: >15%
CC(=O)c1cccc(-c2cncc(N3CCN(c4ccccc4)CC3)n2)c1 ; tested at: 1 µM ; measure: inhibition ; target: UL97 kinase ; species: Cytomegalovirus ; value: <50%
CC1(C)CN(Cc2ccc(F)cc2)C(=O)c2c(O)c(=O)c(-c3ccccn3)cn21 ; read by: ELISA ; measure: IC50 ; target: Integrase ; species: HIV-1 ; value: 0.1–1 µM